According to article PMC9986795, “Structural basis of DNA binding by YdaT, a functional equivalent of the CII repressor in the cryptic prophage CP-933P from Escherichia coli O157:H7” (Acta Crystallographica. Section D, Structural Biology, 2023):
Construct, isoform or probe ends are uncertain for at least one entry.

How the values were obtained:
[1] = target: T1, YdaT (Escherichia coli O157:H7 (prophage CP-933P)) (UniProt A0A6M7H0F8); assay: native MS; settings: 200 mM ammonium acetate pH 8, tetramer with one or two duplexes; recombinant protein
[2] = target: T1, YdaT (Escherichia coli O157:H7 (prophage CP-933P)); assay: SAXS; settings: tetramer with two OM duplexes, ensemble model; recombinant protein

TCATGCTTGATTTTCATGAATCAACTCCAT (double strand) [OM]
binding result [1]: binds
binding result [2]: binds
